Results: publication PMC9104152, “Phosphoproteomics Unravel HBV Triggered Rewiring of Host Phosphosignaling Events” (International Journal of Molecular Sciences, 2022)

Test system: HepG2-NTCP cells
Experiment: TMT-based phosphoproteome profiling of HBV-infected vs mock HepG2-NTCP (HBV/mock ratio)
Design: species or system human
Conditions: phosphosite abundance ratio of host protein, HBV-infected vs mock HepG2-NTCP, 7dpi, sheet Up-regulated

| Molecule | HBV/mock |
| --- | --- |
| P19823 1xPhospho [S60(99.6)] (protein, UniProt P19823 55-702, looked up, phospho S60) Inter-alpha-trypsin inhibitor …: SLPGESEEMMEEVDQVTLYSYKVQSTITSRMATTMIQSKVVNNSPQPQNVVFDVQIPKGAFISNFSMTVDGKTFRSSIKEKTVGRALYAQARAKGKTAGLVRSSALDMENFRTEVNVLPGAKVQFELHYQEVKWRKLGSYEHRIYLQPGRLAKHLEVDVWVIEPQGLRFLHVPDTFEGHFDGVPVISKGQQKAHVSFKPTVAQQRICPNCRETAVDGELVVLYDVKREEKAGELEVFNGYFVHFFAPDNLDPIPKNILFVIDVSGSMWGVKMKQTVEAMKTILDDLRAEDHFSVIDFNQNIRTWRNDLISATKTQVADAKRYIEKIQPSGGTNINEALLRAIFILNEANNLGLLDPNSVSLIILVSDGDPTVGELKLSKIQKNVKENIQDNISLFSLGMGFDVDYDFLKRLSNENHGIAQRIYGNQDTSSQLKKFYNQVSTPLLRNVQFNYPHTSVTDVTQNNFHNYFGGSEIVVAGKFDPAKLDQIESVITATSANTQLVLETLAQMDDLQDFLSKDKHADPDFTRKLWAYLTINQLLAERSLAPTAAAKRRITRSILQMSLDHHIVTPLTSLVIENEAGDERMLADAPPQDPSCCSGALYYGSKVVPDSTPSWANPSPTPVISMLAQGSQVLESTPPPHVMRVEND | 4.229 |
| Q9Y2K7 1xPhospho [S869(100)] (protein, UniProt Q9Y2K7 1-1162, looked up, phosphorylated S869) Lysine-specific demethylase 2A: MEPEEERIRYSQRLRGTMRRRYEDDGISDDEIEGKRTFDLEEKLHTNKYNANFVTFMEGKDFNVEYIQRGGLRDPLIFKNSDGLGIKMPDPDFTVNDVKMCVGSRRMVDVMDVNTQKGIEMTMAQWTRYYETPEEEREKLYNVISLEFSHTRLENMVQRPSTVDFIDWVDNMWPRHLKESQTESTNAILEMQYPKVQKYCLMSVRGCYTDFHVDFGGTSVWYHIHQGGKVFWLIPPTAHNLELYENWLLSGKQGDIFLGDRVSDCQRIELKQGYTFVIPSGWIHAVYTPTDTLVFGGNFLHSFNIPMQLKIYNIEDRTRVPNKFRYPFYYEMCWYVLERYVYCITNRSHLTKEFQKESLSMDLELNGLESGNGDEEAVDREPRRLSSRRSVLTSPVANGVNLDYDGLGKTCRSLPSLKKTLAGDSSSDCSRGSHNGQVWDPQCAPRKDRQVHLTHFELEGLRCLVDKLESLPLHKKCVPTGIEDEDALIADVKILLEELANSDPKLALTGVPIVQWPKRDKLKFPTRPKVRVPTIPITKPHTMKPAPRLTPVRPAAASPIVSGARRRRVRCRKCKACVQGECGVCHYCRDMKKFGGPGRMKQSCVLRQCLAPRLPHSVTCSLCGEVDQNEETQDFEKKLMECCICNEIVHPGCLQMDGEGLLNEELPNCWECPKCYQEDSSEKAQKRKMEESDEEAVQAKVLRPLRSCDEPLTPPPHSPTSMLQLIHDPVSPRGMVTRSSPGAGPSDHHSASRDERFKRRQLLRLQATERTMVREKENNPSGKKELSEVEKAKIRGSYLTVTLQRPTKELHGTSIVPKLQAITASSANLRHSPRVLVQHCPARTPQRGDEEGLGGEEEEEEEEEEEDDSAEEGGAARLNGRGSWAQDGDESWMQREVWMSVFRYLSRRELCECMRVCKTWYKWCCDKRLWTKIDLSRCKAIVPQALSGIIKRQPVSLDLSWTNISKKQLTWLVNRLPGLKDLLLAGCSWSAVSALSTSSCPLLRTLDLRWAVGIKDPQIRDLLTPPADKPGQDNRSKLRNMTDFRLAGLDITDATLRLIIRHMPLLSRLDLSHCSHLTDQSSNLLTAVGSSTRYSLTELNMAGCNKLTDQTLIYLRRIANVTLIDLRGCKQITRKACEHFISDLSINSLYCLSDEKLIQKIS | 1.334 |
| Q8N1G4 1xPhospho [S/T] (protein, UniProt Q8N1G4 2-583, looked up, phosphorylated) Leucine-rich …: AAAAVSESWPELELAERERRRELLLTGPGLEERVRAAGGQLPPRLFTLPLLHYLEVSGCGSLRAPGPGLAQGLPQLHSLVLRRNALGPGLSPELGPLPALRVLDLSGNALEALPPGQGLGPAEPPGLPQLQSLNLSGNRLRELPADLARCAPRLQSLNLTGNCLDSFPAELFRPGALPLLSELAAADNCLRELSPDIAHLASLKTLDLSNNQLSEIPAELADCPKLKEINFRGNKLRDKRLEKMVSGCQTRSILEYLRVGGRGGGKGKGRAEGSEKEESRRKRRERKQRREGGDGEEQDVGDAGRLLLRVLHVSENPVPLTVRVSPEVRDVRPYIVGAVVRGMDLQPGNALKRFLTSQTKLHEDLCEKRTAATLATHELRAVKGPLLYCARPPQDLKIVPLGRKEAKAKELVRQLQLEAEEQRKQKKRQSVSGLHRYLHLLDGNENYPCLVDADGDVISFPPITNSEKTKVKKTTSDLFLEVTSATSLQICKDVMDALILKMAEMKKYTLENKEEGSLSDTEADAVSGQLPDPTTNPSAGKDGPSLLVVEQVRVVDLEGSLKVVYPSKADLATAPPHVTVVR | 1.449 |
| P29966 1xPhospho [S101(100)] (protein, UniProt P29966 2-332, looked up, phosphorylated S101) Myristoylated alanine-rich …: GAQFSKTAAKGEAAAERPGEAAVASSPSKANGQENGHVKVNGDASPAAAESGAKEELQANGSAPAADKEEPAAAGSGAASPSAAEKGEPAAAAAPEAGASPVEKEAPAEGEAAEPGSPTAAEGEAASAASSTSSPKAEDGATPSPSNETPKKKKKRFSFKKSFKLSGFSFKKNKKEAGEGGEAEAPAAEGGKDEAAGGAAAAAAEAGAASGEQAAAPGEEAAAGEEGAAGGDPQEAKPQEAAVAPEKPPASDETKAAEEPSKVEEKKAEEAGASAAACEAPSAAGPGAPPEQEAAPAEEPAAAAASSACAAPSQEAQPECSPEAPPAEAAE | 1.31 |
| Q5T2T1 1xPhospho [S/Y] (protein, UniProt Q5T2T1 1-576, looked up, phosphorylated) MAGUK p55 subfamily member 7: MPALSTGSGSDTGLYELLAALPAQLQPHVDSQEDLTFLWDMFGEKSLHSLVKIHEKLHYYEKQSPVPILHGAAALADDLAEELQNKPLNSEIRELLKLLSKPNVKALLSVHDTVAQKNYDPVLPPMPEDIDDEEDSVKIIRLVKNREPLGATIKKDEQTGAIIVARIMRGGAADRSGLIHVGDELREVNGIPVEDKRPEEIIQILAQSQGAITFKIIPGSKEETPSKEGKMFIKALFDYNPNEDKAIPCKEAGLSFKKGDILQIMSQDDATWWQAKHEADANPRAGLIPSKHFQERRLALRRPEILVQPLKVSNRKSSGFRKSFRLSRKDKKTNKSMYECKKSDQYDTADVPTYEEVTPYRRQTNEKYRLVVLVGPVGVGLNELKRKLLISDTQHYGVTVPHTTRARRSQESDGVEYIFISKHLFETDVQNNKFIEYGEYKNNYYGTSIDSVRSVLAKNKVCLLDVQPHTVKHLRTLEFKPYVIFIKPPSIERLRETRKNAKIISSRDDQGAAKPFTEEDFQEMIKSAQIMESQYGHLFDKIIINDDLTVAFNELKTTFDKLETETHWVPVSWLHS | 1.61 |
| Q9C0I1 1xPhospho [S564(100)] (protein, UniProt Q9C0I1 1-747, looked up, phospho S564) Myotubularin-related protein …: MLGKGVVGGGGGTKAPKPSFVSYVRPEEIHTNEKEVTEKEVTLHLLPGEQLLCEASTVLKYVQEDSCQHGVYGRLVCTDFKIAFLGDDESALDNDETQFKNKVIGENDITLHCVDQIYGVFDEKKKTLFGQLKKYPEKLIIHCKDLRVFQFCLRYTKEEEVKRIVSGIIHHTQAPKLLKRLFLFSYATAAQNNTVTDPKNHTVMFDTLKDWCWELERTKGNMKYKAVSVNEGYKVCERLPAYFVVPTPLPEENVQRFQGHGIPIWCWSCHNGSALLKMSALPKEQDDGILQIQKSFLDGIYKTIHRPPYEIVKTEDLSSNFLSLQEIQTAYSKFKQLFLIDNSTEFWDTDIKWFSLLESSSWLDIIRRCLKKAIEITECMEAQNMNVLLLEENASDLCCLISSLVQLMMDPHCRTRIGFQSLIQKEWVMGGHCFLDRCNHLRQNDKEEVPVFLLFLDCVWQLVHQHPPAFEFTETYLTVLSDSLYIPIFSTFFFNSPHQKDTNMGREGQDTQSKPLNLLTVWDWSVQFEPKAQTLLKNPLYVEKPKLDKGQRKGMRFKHQRQLSLPLTQSKSSPKRGFFREETDHLIKNLLGKRISKLINSSDELQDNFREFYDSWHSKSTDYHGLLLPHIEGPEIKVWAQRYLRWIPEAQILGGGQVATLSKLLEMMEEVQSLQEKIDERHHSQQAPQAEAPCLLRNSARLSSLFPFALLQRHSSKPVLPTSGWKALGDEDDLAKREDEFVDLGDV | 1.3689 |
| Q15742 2xPhospho [S162(100); S] (protein, UniProt Q15742 1-525, looked up, diphosphorylated, S162) NGFI-A-binding protein 2: MHRAPSPTAEQPPGGGDSARRTLQPRLKPSARAMALPRTLGELQLYRVLQRANLLSYYETFIQQGGDDVQQLCEAGEEEFLEIMALVGMATKPLHVRRLQKALREWATNPGLFSQPVPAVPVSSIPLFKISETAGTRKGSMSNGHGSPGEKAGSARSFSPKSPLELGEKLSPLPGGPGAGDPRIWPGRSTPESDVGAGGEEEAGSPPFSPPAGGGVPEGTGAGGLAAGGTGGGPDRLEPEMVRMVVESVERIFRSFPRGDAGEVTSLLKLNKKLARSVGHIFEMDDNDSQKEEEIRKYSIIYGRFDSKRREGKQLSLHELTINEAAAQFCMRDNTLLLRRVELFSLSRQVARESTYLSSLKGSRLHPEELGGPPLKKLKQEVGEQSHPEIQQPPPGPESYVPPYRPSLEEDSASLSGESLDGHLQAVGSCPRLTPPPADLPLALPAHGLWSRHILQQTLMDEGLRLARLVSHDRVGRLSPCVPAKPPLAEFEEGLLDRCPAPGPHPALVEGRRSSVKVEAEASRQ | 1.469 |
| Q09161 1xPhospho [S22(99.7)] (protein, UniProt Q09161 1-790, looked up, phosphorylated S22) Nuclear cap-binding protein …: MSRRRHSDENDGGQPHKRRKTSDANETEDHLESLICKVGEKSACSLESNLEGLAGVLEADLPNYKSKILRLLCTVARLLPEKLTIYTTLVGLLNARNYNFGGEFVEAMIRQLKESLKANNYNEAVYLVRFLSDLVNCHVIAAPSMVAMFENFVSVTQEEDVPQVRRDWYVYAFLSSLPWVGKELYEKKDAEMDRIFANTESYLKRRQKTHVPMLQVWTADKPHPQEEYLDCLWAQIQKLKKDRWQERHILRPYLAFDSILCEALQHNLPPFTPPPHTEDSVYPMPRVIFRMFDYTDDPEGPVMPGSHSVERFVIEENLHCIIKSHWKERKTCAAQLVSYPGKNKIPLNYHIVEVIFAELFQLPAPPHIDVMYTTLLIELCKLQPGSLPQVLAQATEMLYMRLDTMNTTCVDRFINWFSHHLSNFQFRWSWEDWSDCLSQDPESPKPKFVREVLEKCMRLSYHQRILDIVPPTFSALCPANPTCIYKYGDESSNSLPGHSVALCLAVAFKSKATNDEIFSILKDVPNPNQDDDDDEGFSFNPLKIEVFVQTLLHLAAKSFSHSFSALAKFHEVFKTLAESDEGKLHVLRVMFEVWRNHPQMIAVLVDKMIRTQIVDCAAVANWIFSSELSRDFTRLFVWEILHSTIRKMNKHVLKIQKELEEAKEKLARQHKRRSDDDDRSSDRKDGVLEEQIERLQEKVESAQSEQKNLFLVIFQRFIMILTEHLVRCETDGTSVLTPWYKNCIERLQQIFLQHHQIIQQYMVTLENLLFTAELDPHILAVFQQFCALQA | 1.607 |
